Compound potency records, mixed from different reports. Data source: NIAID ChemDB in PubChem.

All rows: whole-cell or culture tests; organism: HIV-1; cells: MT-4; read-out: EC50

An empty or dashed field is not shown. ECn: concentration that inhibits the pathogen or its effect by n%. Conditions beyond the fields shown may differ between rows.

SMILES,strain or isolate,changes,read by,result
COc1ccc(N(C)C(=O)[C@H](Cc2cc(F)cc(F)c2)NC(=O)CN2CCN(S(=O)(=O)c3cccc([N+](=O)[O-])c3)CC2=O)cc1,IIIB,,MTT,1.49 µM
CC(=O)Nc1cnc(Oc2c(Cl)cc(Cl)cc2Cl)nc1Nc1ccc(C#N)cc1,RES056,,MTT,>33 µM
CC(C)(C)NC(=O)c1ccccc1NCC(O)Cn1cc(C(=O)NC(C)(C)C)c(-c2ccccc2)c1,IIIB,,cytopathic effect / MTT,>101 µM
CC1c2nc(C(=O)NCc3ccc(F)cc3)c(O)c(=O)n2CCN1Cc1ccnn1C,,,p24,<1 µM
CC1=CN([C@H]2CS[C@@H](CO)O2)S(=O)(=O)NC1=O,RF,,,>100 µg/mL
CCOC(=O)[C@H](C)NC(O)(Oc1ccccc1)Oc1nc(N(C)C)nc(C(C)c2c(F)cccc2F)c1C,,,MTT,0.006 µM
N#Cc1ccc(Nc2nc(N)nc(Oc3ccc4ccccc4c3Cl)n2)c(F)c1,IIIB,,MTT,0.709 µM
Cc1cc(C)cc(S(=O)(=O)c2c(C(=O)NS(=O)(=O)c3ccc(F)cc3)[nH]c3ccc(Cl)cc23)c1,,K103N,MTT,14.98 µM
CCOC(=O)c1cn(CC(O)CSc2ccccc2)cc1-c1ccccc1,IIIB,,cytopathic effect / MTT,>75.3 µM
Nn1c(SC(c2ccccc2)c2ccccc2)nnc1-c1ccc(Cl)cc1,IIIB,,,>100 µM
COc1ccc(N(C)C(=O)[C@H](Cc2cc(F)cc(F)c2)NC(=O)CN2CCN(S(=O)(=O)c3ccc([N+](=O)[O-])cc3)CC2=O)cc1,IIIB,,MTT,1.01 µM
CCOC(=O)CNc1nc(NC(=O)Nc2ccccc2OC)nc(Oc2cc(=O)oc3ccccc23)n1,IIIB,,MTT,>125 µg/mL
COc1ccc(N(C)C(=O)[C@H](Cc2cc(F)cc(F)c2)NC(=O)CN2CCN(S(=O)(=O)c3cccc(Br)c3)CC2=O)cc1,IIIB,,MTT,0.86 µM
Nc1ncc(C(c2ccccc2)n2ccnc2)c(-c2ccccc2)n1,IIIB,,cytopathic effect / MTT,>134 µM
COCCOC(=O)c1cccn1S(=O)(=O)c1cc(Cl)ccc1[N+](=O)[O-],IIIB,,cytopathic effect / MTT,>12 µM
c1ccc(-c2ncc(C(c3ccccc3)n3ccnc3)c(-c3ccccc3)n2)cc1,IIIB,,cytopathic effect / MTT,>26 µM
CN1C(=O)[C@@H](c2cc(Cl)c(O)c(Cl)c2)NC(=O)[C@@H]2NC(=O)[C@H](c3cc(Cl)c(O)c(Cl)c3)NC(=O)[C@@H](NC(=O)C(=O)c3cc(Cl)c(O)c(Cl)c3)Cc3c[nH]c4cc(ccc34)-c3cc2cc(c3O)Oc2ccc(cc2)C[C@H]1C(=O)N[C@@H](C(=O)O)c1ccc(O)cc1,IIIB,,cytopathic effect / MTT,1.6 µM
CCOC(=O)CNc1nc(NC(=O)Nc2ccc(C)cc2)nc(Oc2cc(=O)oc3ccccc23)n1,IIIB,,MTT,>11.27 µg/mL
Nn1c(-c2ccc(Cl)cc2)n[nH]c1=S,NNRTI-resistant N119,RT-Y181C,,>100 µM
NC1=NS(=O)(=O)N([C@H]2CS[C@@H](CO)O2)C=C1,RF,,,>100 µg/mL
Cc1cc(CNC(=O)c2nc3n(c(=O)c2O)CCN(C2CC2)CC3N(C)C(=O)C(=O)N(C)C)ccc1F,,,p24,<1 µM
COc1ccc(CCNc2nc(NC(=O)Nc3ccccc3)nc(Oc3cc(=O)oc4ccccc34)n2)cc1OC,IIIB,,MTT,>86.93 µg/mL
COc1ccc(-c2nnc(S[C@@H]3O[C@H](CO)[C@@H](O)[C@H](O)[C@H]3O)n2N)cc1,IIIB,,,>100 µM
CC(C)=CCN1Cc2cc(Cl)cc3[nH]c(=O)n(c23)C[C@@H]1C,IIIB,,cytopathic effect / XTT,0.25 µM
CN(Cc1ccccc1)C(=O)c1cccn1S(=O)(=O)c1cc(Cl)ccc1N,IIIB,,cytopathic effect / MTT,>87 µM
Cc1ccc(-c2nnc3sc(C(N)CC(C)C)nn23)cc1,NNRTI-resistant N119,RT-Y181C,,>100 µM
CCCc1c(Cc2ccccc2)n(COC/C=C/c2ccccc2)c(=O)[nH]c1=O,NNRTI-resistant (RT K103N Y181C) A17,RT-K103N Y181C,cytopathic effect / MTT,>100 µM
Nc1ccc(Cl)cc1S(=O)(=O)n1cccc1C(=O)OCC1CC1,IIIB,,cytopathic effect / MTT,2.3 µM
CN(C)c1ccc(F)c(CCNC(=S)Nc2ccc(Cl)cn2)c1F,IIIB,,cytopathic effect / XTT,0.04 µM
Cc1cc(C)cc(S(=O)(=O)c2c(C(=O)NS(=O)(=O)c3ccccc3)[nH]c3ccc(Cl)cc23)c1,,Y188L,MTT,>131 µM
CCOC(=O)CNc1nc(Nc2ccc(F)cc2)nc(Oc2cc(=O)oc3ccccc23)n1,IIIB,,MTT,>67.6 µg/mL
CCOC(=O)c1nnsc1NCCCCNc1snnc1C(=O)OCC,IIIB,,MTT,>105 µM
CCCc1c(Cc2cc(C)cc(C)c2)n(COC/C=C/c2ccccc2)c(=O)[nH]c1=O,IIIB,,cytopathic effect / MTT,0.06 µM
Cc1cc(C)cc(S(=O)(=O)c2c(C(=O)NS(=O)(=O)C(F)(F)F)[nH]c3ccc(Cl)cc23)c1,IIIB,,MTT,2.95 µM
CN(CC1c2nc(C(=O)NCc3ccc(F)cc3)c(O)c(=O)n2CCN1C)C(=O)CS(C)(=O)=O,,,p24,<50 µM
NNC(=O)c1cccn1S(=O)(=O)c1cc(Cl)ccc1[N+](=O)[O-],IIIB,,cytopathic effect / MTT,>200 µM
CCNc1nc(Nc2ccc(C#N)cc2F)nc(Oc2ccc3ccccc3c2Br)n1,IIIB,,MTT,2.05 µM
Cc1cc(C)cc(S(=O)(=O)c2c(C(=O)NS(=O)(=O)c3ccc(F)cc3F)[nH]c3ccc(Cl)cc23)c1,,Y181C,MTT,5.33 µM
CCOC(=O)c1ccn(CC(O)CNc2ccccc2)c1,IIIB,,cytopathic effect / MTT,>200 µM
N#Cc1ccc(Nc2nc(Oc3c(Br)cc(Br)cc3Br)ncc2[N+](=O)[O-])cc1,IIIB,,MTT,3.9 µM
CCOC(=O)c1cccn1S(=O)(=O)c1cc(Cl)ccc1Cl,IIIB,,cytopathic effect / MTT,7.6 µM
CC1(C)c2nc(C(=O)NCc3ccc(F)cc3)c(O)c(=O)n2CCN1Cc1cnco1,,,p24,<1 µM
CCOC(=O)CNc1nc(Nc2ccccc2OC)nc(Oc2cc(=O)oc3ccccc23)n1,IIIB,,MTT,>72.3 µg/mL
CCCc1c(Cc2cc(C)cc(C)c2)n(COC2C=CCCC2)c(=O)[nH]c1=O,IIIB,,cytopathic effect / MTT,0.03 µM
c1ccc(-c2ccc(C(c3ccccc3)n3ccnc3)cc2)cc1,IIIB,,cytopathic effect / MTT,28 µM
O=C(Oc1ccccc1)c1cccn1S(=O)(=O)c1cc(Cl)ccc1[N+](=O)[O-],IIIB,,cytopathic effect / MTT,>15.5 µM
COc1ccc(CCNc2nc(NC(=O)Nc3ccc(Cl)cc3)nc(Oc3cc(=O)oc4ccccc34)n2)cc1OC,IIIB,,MTT,>35.43 µg/mL
NC1=NS(=O)(=O)N(Cc2ccccc2)c2ncn([C@H]3CS[C@@H](CO)O3)c21,RF,,,>100 µg/mL
CCCS(=O)(=O)NC(=O)c1[nH]c2ccc(Cl)cc2c1S(=O)(=O)c1cc(C)cc(C)c1,,K103N,MTT,2.48 µM
CCCCOC(=O)c1cccn1S(=O)(=O)c1cc(Cl)ccc1[N+](=O)[O-],IIIB,,cytopathic effect / MTT,>22 µM
CC1=CN([C@@H]2CS[C@@H](CO)O2)S(=O)(=O)NC1=O,RF,,,>100 µg/mL
CCOC(=O)c1cn(CC(O)CNc2cccc(N)c2)cc1-c1ccccc1,IIIB,,cytopathic effect / MTT,>4.3 µM
C=CNc1nc(Nc2ccc(C#N)cc2F)nc(Oc2ccc3ccccc3c2Br)n1,IIIB,,MTT,1.173 µM
Cc1cc(C)c(Oc2ncc(N)c(Nc3ccc(C#N)cc3)n2)c(C)c1,RES056,,MTT,0.75 µM
CN(C)C(=O)C(=O)N(C)C1CN(CC2CC2)CCn2c1nc(C(=O)NCc1ccc(F)cc1)c(O)c2=O,,,p24,<1 µM
CCNc1nc(Nc2ccc(C#N)cc2F)nc(Oc2ccc3ccccc3c2Cl)n1,IIIB,,MTT,1.618 µM
CCOCn1c(Cc2ccccc2)c(C(C)C)c(=O)[nH]c1=O,IIIB,,cytopathic effect / MTT,0.02 µM
COc1ccc(N(C)C(=O)[C@H](Cc2cc(F)cc(F)c2)NC(=O)CN2CCN(S(=O)(=O)c3ccc(F)cc3)CC2=O)cc1,ROD,,MTT,0.12 µM
O=C(CCCCCCC(=O)Nc1cc(S(=O)(=O)O)cc2cc(S(=O)(=O)O)cc(O)c12)Nc1cc(S(=O)(=O)O)cc2cc(S(=O)(=O)O)cc(O)c12,IIIB,,syncytia,<20 µM
O=C1C=CN([C@@H]2CS[C@@H](CO)O2)S(=O)(=O)N1,RF,,,>100 µg/mL
CNC(=O)c1nc([C@]2(C)CSC([C@]3(C)CSC([C@]4(C)CSC(/C=C/c5ccccc5)=N4)=N3)=N2)oc1C,IIIB,,cytopathic effect / thymidine uptake,<0.000047 µM
N#Cc1ccc(Nc2nc(Oc3c(Br)cc(Br)cc3Br)ncc2NC(=O)C(F)(F)F)cc1,IIIB,,MTT,0.035 µM
C=CNc1nc(Nc2ccc(C#N)cc2F)nc(Oc2ccc3ccccc3c2Cl)n1,IIIB,,MTT,1.98 µM
Cc1cc(Br)cc(C)c1Oc1ncc([N+](=O)[O-])c(Nc2ccc(C#N)cc2)n1,IIIB,,MTT,0.063 µM
Nn1c(S[C@@H]2O[C@H](CO)[C@@H](O)[C@H](O)[C@H]2O)nnc1-c1ccc(Cl)cc1,NNRTI-resistant N119,RT-Y181C,,>100 µM
CC(=O)Nc1cnc(Oc2c(Cl)cccc2Cl)nc1Nc1ccc(C#N)cc1,IIIB,,MTT,32 µM
CCc1c(Cc2cc(C)cc(C)c2)n(COC/C=C/c2ccccc2)c(=O)[nH]c1=O,IIIB,,cytopathic effect / MTT,0.003 µM

The last 5 rows once more:

SMILES	strain or isolate	changes	read by	result
C=CNc1nc(Nc2ccc(C#N)cc2F)nc(Oc2ccc3ccccc3c2Cl)n1	IIIB		MTT	1.98 µM
Cc1cc(Br)cc(C)c1Oc1ncc([N+](=O)[O-])c(Nc2ccc(C#N)cc2)n1	IIIB		MTT	0.063 µM
Nn1c(S[C@@H]2O[C@H](CO)[C@@H](O)[C@H](O)[C@H]2O)nnc1-c1ccc(Cl)cc1	NNRTI-resistant N119	RT-Y181C		>100 µM
CC(=O)Nc1cnc(Oc2c(Cl)cccc2Cl)nc1Nc1ccc(C#N)cc1	IIIB		MTT	32 µM
CCc1c(Cc2cc(C)cc(C)c2)n(COC/C=C/c2ccccc2)c(=O)[nH]c1=O	IIIB		cytopathic effect / MTT	0.003 µM